## HIV-1 5' UTR: effect of mutations on RNA dimer formation

Reference: Ye et al. 2022, doi:10.1038/s41594-022-00746-2.

The 5' region of HIV-1 NL4-3 RNA (positions 1-437):
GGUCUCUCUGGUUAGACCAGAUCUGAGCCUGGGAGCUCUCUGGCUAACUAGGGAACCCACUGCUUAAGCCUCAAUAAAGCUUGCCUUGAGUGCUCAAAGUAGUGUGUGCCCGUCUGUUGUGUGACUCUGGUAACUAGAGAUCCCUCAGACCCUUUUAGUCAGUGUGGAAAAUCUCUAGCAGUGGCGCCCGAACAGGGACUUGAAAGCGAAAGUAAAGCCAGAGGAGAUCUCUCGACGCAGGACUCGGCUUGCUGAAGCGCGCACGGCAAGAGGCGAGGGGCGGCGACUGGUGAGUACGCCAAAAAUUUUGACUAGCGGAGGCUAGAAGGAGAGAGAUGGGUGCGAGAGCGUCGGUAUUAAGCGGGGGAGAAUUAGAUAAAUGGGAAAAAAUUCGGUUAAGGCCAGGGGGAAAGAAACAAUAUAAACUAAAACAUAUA

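Randomly mutated transcripts starting with one, two or three G (1G, 2G, 3G), capped or uncapped, were folded for 30 min at 37 °C. Monomer and dimer bands were cut from native gels after folding in high salt (300 mM KCl, 5 mM MgCl2) or low salt (40 mM KCl, 0.1 mM MgCl2). Mutation frequencies in the two bands give Kdimer.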

Scale: median log2 Kdimer over the changes at a position; positive = changes inhibit dimerization, negative = changes enhance it. Sample: 2G capped low-salt. One numbering serves 1G, 2G and 3G. A position is written with its base.

- C352 -> -0.01
- G353 -> 0.30
- G354 -> -0.63
- U355 -> 0.00
- A356 -> -0.05
- U357 -> 0.00
- U358 -> -0.18
- A359 -> -0.01
- A360 -> -0.35
- G361 -> 0.08
- C362 -> 0.16
- G363 -> 0.26
- G364 -> -0.20
- G365 -> 0.05
- G366 -> 0.02
- G367 -> 0.18
- A368 -> -0.07
- G369 -> 0.11
- A370 -> 0.08
- A371 -> -0.54
- U372 -> -0.07
- U373 -> 0.06
- A374 -> 0.06
- G375 -> -0.10
- A376 -> -0.09
- U377 -> -0.17
- A378 -> -0.02
- A379 -> 0.05
- A380 -> -0.10
- U381 -> -0.08
- G382 -> -0.12
- G383 -> 0.11
- G384 -> -0.14
- A385 -> -0.25
- A386 -> 0.02
- A387 -> -0.02
- A388 -> -0.06
- A389 -> 0.02
- A390 -> -0.09
- U391 -> -0.06
- U392 -> -0.03
- C393 -> -0.03
- G394 -> 0.15
- G395 -> -0.42
- U396 -> -0.03
- U397 -> -0.01
- A398 -> 0.01
- A399 -> 0.00
- G400 -> -0.05
- G401 -> -0.25
- C402 -> -0.20
- C403 -> -0.42
- A404 -> -0.22
- G405 -> -0.25

The opening 4 entries, copied out:

C352: -0.01.
G353: 0.30.
G354: -0.63.
U355: 0.00.